## Screening data, single-dose tests

Data taken from ChEMBL document CHEMBL3988442, “University of Dundee, Small-Polar-MMV Screening Library” (2021).

Mtb glucose medium: 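Growth of Mycobacterium tuberculosis over 3 days (7H9 medium with glucose and tyloxapol); the read-out is not stated. Tested at 500 µM. Direction is inferred from retests: higher values go with more growth inhibition. Of about 18,000 compounds tested this way, about 1,400 (7.9%) reached 50% or more in at least one test.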
Mtb cholesterol medium: 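Growth of Mycobacterium tuberculosis over 4 days (cholesterol / DPPC medium with tyloxapol); the read-out is not stated. Compounds at 500 µM. Direction is inferred from retests: higher values go with more growth inhibition. Size under these conditions: about 18,000 compounds, about 900 of them at 50% or above in at least one test.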

Values are the deposited “Percent Effect”, in %.
The controls that fix the scale are not given in the record; negative values are as filed.
The entries come from a sample that favours strong results.
A dash means the value is not listed here; it may have been measured.

structure,Mtb glucose medium,Mtb cholesterol medium
CC(C)n1nnnc1SCCS(=O)(=O)c1ccccc1,55.52%,56.32%
CC(CO)NC(=O)CN(c1cccc(F)c1)S(C)(=O)=O (stereo not drawn),0.6861%,-
Cc1cccc(N2CCN(CCC(N)=O)CC2)c1,-,8.922%
CC(=O)Cn1nc(C)c(Br)c1C,9.268%,-
COc1ccc(COCCNC(C)=O)cc1,21.53%,-
O=C(CCN1C(=O)CCC1=O)OCC(=O)c1ccc[nH]1,-17.18%,-5.928%
Cc1csc(CNc2ccc(OCCO)nc2)n1,-,-24.78%
CCC1CN(C(=O)c2ccc(S(C)(=O)=O)cc2)CCO1 (stereo not drawn),-,2.687%
NCc1noc(-c2ccsc2)n1,-8.447%,-13.93%
OCC(F)(F)CNCc1cccc(-n2cccn2)c1,-,19.43%
O=S(=O)(NC1CCCC1)C1CN(Cc2ccno2)C1,-,1.569%
CC(O)C1CCN(CCC(=O)NC(C)(C)C)CC1 (stereo not drawn),-8.451%,-
COc1ccccc1OCC(C)CN (stereo not drawn),85.67%,77.33%
O=C(NC1=NCCS1)c1cc(Br)c[nH]1,25.36%,14.38%
Cc1cnc(C(=O)N2CCC(C)CC2)cn1,43.49%,-
Cc1nnc(SCC(=O)NCCOc2nonc2C)s1,17.99%,-
NC(=O)CCc1ccc(Cl)s1,-,61.8%
Cc1ccc(-n2nnnc2NC2CC2)cc1,51.88%,26.06%
COC(=O)NCC(=O)NC1CCCCNC1=O (stereo not drawn),-,2.145%
COC(=O)Cc1sc(N)nc1C,-,16.88%
CCc1ccccc1N1CC(C(=O)NC)CC1=O (stereo not drawn),6.241%,-
CC(CN[C@@H](C)CO)c1ccccc1 (stereo partly drawn),-,4.932%
N#Cc1cc(F)cc(CO)c1,5.905%,-
Cc1ccc(NC(=O)CN2CCC(O)CC2)c(C)c1,-,21.56%
NCc1ccc(-n2ccnc2)cc1,-,-12.1%
CCOc1ccc2cc(C(=O)N3CCSCC3)[nH]c2c1,3.581%,-
CC(C)(O)CN1CCN(C(=O)CN2CSCC2=O)CC1,-2.112%,-
CN1CCC(N(C)C(=O)c2ccc(C#N)cc2)CC1,-,-4.269%
CCc1noc(C2(O)CCNC2)n1 (stereo not drawn),-,7.877%
Clc1cccnc1N1CCNCC1,1.317%,-
CC(N)c1nnc(-c2cccc(F)c2)s1 (stereo not drawn),-6.545%,-
N#Cc1ccc(OCCN)cc1,-,16.82%
Cc1ccsc1CN1CCc2n[nH]c(=O)n2CC1,-,14.41%
CC(C)[C@H]1CN(CCC(=O)N(C)C)C[C@@H]1N,3.951%,-
COCCN(C)CC(=O)N1C[C@@H](C)[C@@](C)(O)C1,-,-5.218%
CC(=O)N1CCNCC12CCCCC2,12.59%,-
COc1cccc(N2CCNCC2=O)c1,-11.25%,-
Cc1cc(C)c(CNc2ncnc3[nH]ncc23)c(=O)[nH]1,-2.183%,-
CCNC(=O)C1CCN(Cc2cc(C)on2)CC1,-,-10.42%
CNC(=O)NC(=O)C(C)Nc1cccc(C)c1 (stereo not drawn),58.02%,63.43%
CO[C@H]1C[C@@H](O)C12CCN(c1cc(N)ncn1)CC2,2.579%,-
Brc1cncc(NCCOCC2CCCO2)c1 (stereo not drawn),48.68%,-
NC(=O)CN1CCC(COCc2ccccc2)C1 (stereo not drawn),74.98%,-
Nc1nccc(-c2cncc(F)c2)n1,20.43%,-
CCn1cncc1C1CCCCN1 (stereo not drawn),12.12%,-
CS(=O)(=O)N1CCOCC12CCC2,-,-3.003%
CC(N)CN1CCOC1=O (stereo not drawn),-,-7.004%
CC(CN)c1nncn1C (stereo not drawn),-,-3.399%
CC(C)n1cc(C(=O)N2CC(c3ccccn3)C2)cn1,40.25%,19.81%
Cn1nnnc1SCCNC(=O)c1cc(Cl)ccc1F,-,5.087%
COc1ccc(C(=O)CSc2nnc(N)[nH]2)cc1F,-,35.6%
Cn1cc2ccc(CN)cc2n1,15.18%,-
Cc1nn(C)c(Cl)c1C(=O)NCc1ccccn1,22.26%,-
CCCn1nccc1C(=O)N1CCn2cncc2C1,-0.4258%,-
CC(C)n1ccnc1CN(C)CC(C)(C)S(C)(=O)=O,5.938%,-
CN(Cc1cccnc1)C(=O)c1cc(Cl)c[nH]1,57.22%,48.72%
CCOc1cccc(CNc2nc(N(C)C)n[nH]2)c1,53.97%,88.04%
COc1ccc(C)cc1[C@@H](C)N,-,-5.836%
CC(Sc1nc2ccccc2o1)C(=O)N1CCOCC1 (stereo not drawn),76.74%,62.57%
O=C(CC1COCCN1)NCCCc1ccccc1F (stereo not drawn),25.03%,-
N#Cc1ccc(OC2CCC(N)CC2)nc1 (stereo not drawn),-17.7%,-
COc1ncccc1NC(=O)Nc1c(C)n[nH]c1C,-,-8.707%
CCc1ccc(CN2CCN(C(=O)N(C)C)CC2)o1,60.27%,51.82%
CCCNC(=O)C(C)N (stereo not drawn),6.514%,-
CC(=O)N1CCC(NC(=O)NCc2sccc2C)CC1,12.35%,-
CN(C)S(=O)(=O)c1ccc2[nH]c(=O)oc2c1,15.21%,-
CC(C)C(NC(=O)CS(C)(=O)=O)c1ccccn1 (stereo not drawn),14.45%,-
COCC(CN)c1ccc(Cl)cc1 (stereo not drawn),2.301%,-

The first 7 entries again:

* CC(C)n1nnnc1SCCS(=O)(=O)c1ccccc1 : Mtb glucose medium: 55.52%; Mtb cholesterol medium: 56.32%
* CC(CO)NC(=O)CN(c1cccc(F)c1)S(C)(=O)=O (stereo not drawn) : Mtb glucose medium: 0.6861%
* Cc1cccc(N2CCN(CCC(N)=O)CC2)c1 : Mtb cholesterol medium: 8.922%
* CC(=O)Cn1nc(C)c(Br)c1C : Mtb glucose medium: 9.268%
* COc1ccc(COCCNC(C)=O)cc1 : Mtb glucose medium: 21.53%
* O=C(CCN1C(=O)CCC1=O)OCC(=O)c1ccc[nH]1 : Mtb glucose medium: -17.18%; Mtb cholesterol medium: -5.928%
* Cc1csc(CNc2ccc(OCCO)nc2)n1 : Mtb cholesterol medium: -24.78%